Measured values as given in US11653679B2, “High-purity steviol glycosides” (PureCircle Sdn Bhd, priority 2014, dated 2023).
Some compounds share one wording; it may come from a single statement.

Experiments:
[1] = system: Cellulase Tr; experiment: Stability of rebaudiosides in the presence of Cellulase Tr (Example 50); assay type: biochemical, Trichoderma reesei; conditions: 1 mM, pH 4.5, 30° C., 24 h
[2] = system: Cellobiase As; experiment: Stability of rebaudiosides in the presence of Cellobiase As (Example 50); assay type: biochemical, Aspergillus niger; conditions: 1 mM, pH 4.5, 30° C., 24 h

Row | Structure (SMILES) | conversion of rebaudioside in the presence of Cellulase Tr [1] | conversion of rebaudioside in the presence of Cellobiase As [2]
1 | C=C1C[C@@]23CC[C@H]4[C@@](C)(CCC[C@@]4(C)C(=O)O[C@@H]4O[C@H](CO)[C@@H](O)[C@H](O)[C@H]4O)[C@@H]2CC[C@]1(O[C@@H]1O[C@H](CO)[C@@H](O)[C@H](O[C@@H]2O[C@H](CO)[C@@H](O)[C@H](O)[C@H]2O)[C@H]1O[C@@H]1O[C@H](CO)[C@@H](O)[C@H](O)[C@H]1O)C3 [Rebaudioside A, reference compound] | no significant conversion | no significant conversion
2 | C=C1C[C@@]23CC[C@H]4[C@@](C)(CCC[C@@]4(C)C(=O)O[C@@H]4O[C@H](CO)[C@@H](O)[C@H](O)[C@H]4O[C@@H]4O[C@H](CO)[C@@H](O)[C@H](O)[C@H]4O)[C@@H]2CC[C@]1(O[C@@H]1O[C@H](CO)[C@@H](O)[C@H](O[C@@H]2O[C@H](CO)[C@@H](O)[C@H](O)[C@H]2O)[C@H]1O[C@@H]1O[C@H](CO)[C@@H](O)[C@H](O)[C@H]1O)C3 [Rebaudioside D] | no significant conversion | no significant conversion
3 | C=C1C[C@@]23CC[C@H]4[C@@](C)(CCC[C@@]4(C)C(=O)O[C@@H]4O[C@H](CO)[C@@H](O)[C@H](O[C@@H]5O[C@H](CO)[C@@H](O)[C@H](O)[C@H]5O)[C@H]4O[C@@H]4O[C@H](CO)[C@@H](O)[C@H](O)[C@H]4O)[C@@H]2CC[C@]1(O[C@@H]1O[C@H](CO)[C@@H](O)[C@H](O[C@@H]2O[C@H](CO)[C@@H](O)[C@H](O)[C@H]2O)[C@H]1O[C@@H]1O[C@H](CO)[C@@H](O)[C@H](O)[C@H]1O)C3 [reb M, Rebaudioside M] | no significant conversion | no significant conversion
